Pooled drug test results. Numbers come from NIAID ChemDB, via PubChem.

Shared fields: cytotoxicity tests; cells: MRC-5; read-out: CC50

Neighbouring rows are from separate reports.

structure | method | value
CC(C)Nc1nc2cc(Cl)c(Cl)cc2n1[C@@H]1CO[C@H](C)[C@H]1O | - | 32 µM
CCOP(=O)(CCCOCn1cnc2c(=O)[nH]c(N)nc21)OCC | visual reading | >2780 µM
CCCCCCCCCCCCCCCCOCCCOP(=O)(O)OCC(CO)OCn1cnc2c(=O)[nH]c(N)nc21 | - | >300 µM
CCO/N=C/c1cc(C)c(OCCCc2cc(C)no2)c(C)c1 | visual reading | 25 µg/mL
O=C1c2ccccc2N(Cc2ccccc2Cl)S(=O)(=O)N1Cc1ccccc1Cl | - | >56 µM
O=C(NCc1cccs1)c1nn2c(c1Cl)N[C@H](c1ccco1)C[C@@H]2C(F)(F)F | ATP | >100 µM
Cc1cn([C@@H]2O[C@H](CO)[C@@H](O)[C@@H]2O)c(=S)nc1N | - | >264.9 µM
CC(C)Nc1nc2cc(Cl)c(Cl)cc2n1[C@H]1O[C@@H](CO)[C@H](O)[C@@H]1O | - | 100 µM
Nc1nc2c(ncn2COC(CO)CO)c(=O)[nH]1 | - | >100 µM
OC[C@H]1OC[C@@H](n2c(Br)nc3cc(Cl)c(Cl)cc32)[C@@H]1O | - | 100 µM
Brc1ccc2cc(-c3ccccc3)cn2c1 | MTT | >500 µM
CC1(C)CC[C@]2(C(=O)OC3O[C@H](CO)[C@@H](O)[C@H](O)[C@H]3O)CC[C@]3(C)C(=CCC4[C@@]5(C)CCC(O[C@@H]6O[C@H](C(=O)O)[C@@H](O)[C@H](O)[C@H]6O)C(C)(C)C5CC[C@]43C)[C@H]2C1 | - | 1100 µM
C=Cc1cn([C@@H]2O[C@H](CO)[C@@H](O)[C@@H]2O)c(=S)[nH]c1=O | - | >266.3 µM
OC[C@H]1OC(c2c(-c3ccccc3)cc3c(Cl)cc(C(F)(F)F)cn23)[C@H](O)[C@@H]1O | MTT | 172 µM
O=C(CCCCCCCCC(=O)Nc1cc(S(=O)(=O)O)cc2cc(S(=O)(=O)O)cc(O)c12)Nc1cc(S(=O)(=O)O)cc2cc(S(=O)(=O)O)cc(O)c12 | - | >500 µM
Cc1cc(C=O)cc(C)c1Oc1cc(Nc2ccc(C#N)cc2)nc2ccccc12 | MTT | 69.8 µM
CCc1cn([C@H]2C[C@H](O)[C@@H](CO)O2)c(=S)[nH]c1=O | - | >288.6 µM
N#Cc1ccc(CN2c3ccccc3C(OCc3ccccc3)=NS2(=O)=O)cc1 | - | >62 µM
O=C(OC[C@H]1O[C@@H](OC(=O)c2cc(O)c(O)c(O)c2)[C@H](OC(=O)c2cc(O)c(O)c(O)c2)[C@@H](OC(=O)c2cc(O)c(O)c(O)c2)[C@@H]1OC(=O)c1cc(O)c(O)c(O)c1)c1cc(O)c(O)c(O)c1 | XTT | 745 µM
O=S1(=O)N=C(OCc2ccccc2)c2ccccc2N1Cc1ccc(Cl)c(Cl)c1 | - | >56 µM
c1coc(-c2cc3ccccn3c2)c1 | MTT | >500 µM
COc1ccc2c(c1OC)C=[N+]1CCc3cc4c(cc3C1C2)OCO4 | - | 74 µM
O=c1[nH]c(=S)n([C@@H]2O[C@H](CO)[C@@H](O)[C@@H]2O)cc1/C=C/c1ccccc1 | - | >213 µM
CC(=O)c1c(-c2ccc(Cl)c(Cl)c2)cc2ccccn12 | MTT | 162 µM
CCCCN1C(=O)c2ccccc2N(Cc2ccccc2)S1(=O)=O | - | 63.7 µM
O=S(=O)(O)c1cc(NS(=O)(=O)c2ccc(-c3ccc(S(=O)(=O)Nc4cc(S(=O)(=O)O)c5cccc(S(=O)(=O)O)c5c4)cc3)cc2)cc2c(S(=O)(=O)O)cccc12 | - | >500 µM
CC1(C)C(=O)C=C[C@]2(C)C3CC[C@@]4(C)[C@H](c5ccoc5)OC(=O)[C@H]5O[C@]54C3[C@H](O)[C@H](O)C12 | resazurin | >219 µM
O=C1c2ccccc2N(Cc2ccccc2)S(=O)(=O)N1Cc1cc(Cl)c(Cl)c(Cl)c1Cl | - | >60 µM
O=C1c2sccc2N(Cc2ccc(Cl)cc2)S(=O)(=O)N1Cc1ccccc1 | - | 59.6 µM
COc1cc2oc(-c3ccccc3)cc(=O)c2c(OC)c1OC | - | 37 µg/mL
Nc1nc2c(ncn2COC(CO)CCP(=O)(O)O)c(=O)[nH]1 | - | >1000 µM
CN1C(=O)c2ccccc2N(Cc2ccc(Cl)cc2)S1(=O)=O | - | 2.9 µM
Nc1nc(=S)n([C@H]2C[C@H](O)[C@@H](CO)O2)cc1Br | - | 312 µM
Nc1nc2c(ncn2CCC(CO)CO)c(=O)[nH]1 | - | >158 µM
Cc1ccc(N2CCC(CCOc3ccc4oc(C)nc4c3)CC2)nn1 | - | >1 µg/mL
Nc1nc(=S)n([C@@H]2O[C@H](CO)[C@@H](O)[C@@H]2O)cc1Br | - | >592 µM
CC(COCP(=O)(O)O)n1cnc2c(=O)[nH]c(N)nc21 | XTT | >330 µM
COc1ccc2c(c1)C=C1Cn3c-2c(C2CCCCC2)c2ccc(cc23)C(=O)NS(=O)(=O)N(C)CCOCCN(C)C1=O | resazurin | >50 µM
C=Cc1cn([C@H]2C[C@H](O)[C@@H](CO)O2)c(=S)[nH]c1=O | - | >290.3 µM
O=S1(=O)N=C(OCc2ccc(Cl)cc2)C=CN1Cc1ccc(Cl)cc1 | - | 25.1 µM
Nc1nc2c(ncn2COC(CO)CO)c(=O)[nH]1 | MTT | >250 µM
Nc1nc2c(ncn2CO[C@@H](CO)CCP(=O)(O)O)c(=O)[nH]1 | visual reading | >3000 µM
O=C1c2sccc2N(Cc2ccc(Cl)c(Cl)c2)S(=O)(=O)N1Cc1ccccc1 | - | 55 µM
NNC(=O)c1ccncc1 | MTS | >25 µM
Nc1ccn([C@@H]2O[C@H](CO)[C@@H](O)[C@H]2O)c(=S)n1 | - | >386 µM
Nc1nc2c(ncn2C[C@@H]2CC[C@@H](P(=O)(O)O)O2)c(=O)[nH]1 | - | 28 µg/mL
CCCN1C(=O)c2ccccc2N(Cc2ccc(Cl)cc2)S1(=O)=O | - | 13.7 µM
CO/N=C/c1ccc(OCCC2CCN(c3ccc(Cl)nn3)CC2)cc1 | visual reading | >1 µg/mL
Nc1nc2c(ncn2COCCO)c(=O)[nH]1 | - | 1575 µM
COc1ncnc2c1ccn2[C@@H]1O[C@H](CO)[C@@H](O)[C@H]1O | MTT | >100 µg/mL
CC(O)c1cn([C@@H]2O[C@H](CO)[C@@H](O)[C@@H]2O)c(=S)nc1N | - | >244.8 µM
Nc1nc2c(ncn2C[C@]2(CO)C[C@H]2CO)c(=O)[nH]1 | - | 29 µg/mL
Nc1nc(=S)n([C@@H]2O[C@H](CO)[C@@H](O)[C@@H]2O)cc1/C=C/c1ccccc1 | - | >213 µM
CCOP(=O)(O)CCC(C)OCn1cnc2c(=O)[nH]c(N)nc21 | visual reading | >2760 µM
O=C(CCCCCCCCCCC(=O)Nc1cc(S(=O)(=O)O)c2cccc(S(=O)(=O)O)c2c1)Nc1cc(S(=O)(=O)O)c2cccc(S(=O)(=O)O)c2c1 | - | 191 µM
CC#Cc1cn([C@@H]2O[C@H](COP(=O)(OCC)Oc3ccccc3)[C@@H](O)[C@@H]2O)c(=O)[nH]c1=O | - | >500 µM
O=C1CCC(N2C(=O)c3ccccc3C2=O)C(=O)N1 | - | >10 µg/mL
CCCCN1C(=O)c2ccccc2N(C(=O)c2ccccc2)S1(=O)=O | - | 61.5 µM
CCO/N=C/c1ccc(OCCC2CCN(c3ccc(Cl)nn3)CC2)c(C)c1 | visual reading | >1 µg/mL
C#Cc1cn([C@H]2C[C@H](O)[C@@H](CO)O2)c(=O)[nH]c1=O | - | 50 µM
Nc1nc(=S)n([C@@H]2O[C@H](CO)[C@@H](O)[C@@H]2O)cc1I | - | >520 µM
CCc1nn(CCO)c(CC)c1Oc1cc(C#N)cc(C#N)c1 | - | >64 µM
CSc1nc2ccc(OCCC3CCN(c4ccc(C)nn4)CC3)cc2o1 | - | >1 µg/mL
CCCO/N=C/c1ccc(OCCC2CCN(c3ccc(Cl)nn3)CC2)cc1 | visual reading | >1 µg/mL
Nc1nc2c(sc(=O)n2C/C=C\CO)c(=O)[nH]1 | - | >300 µM
O=S1(=O)N=C(OCc2ccc(-c3ccccc3)cc2)c2ccccc2N1Cc1ccc(-c2ccccc2)cc1 | - | >47 µM
C/C=C1\CNCCC1[C@@](C)(O)c1cc2ccccc2[nH]1 | MTT | 40.8 µg/mL
COc1ccc2c(c1)[C@@H]1C[C@]1(C(=O)N1[C@@H]3CC[C@H]1CN(C)C3)Cn1c-2c(C2CCCCC2)c2ccc(C(=O)NS(=O)(=O)N(C)C)cc21 | resazurin | 18 µM
Nc1nc(=S)n([C@H]2C[C@H](O)[C@@H](CO)O2)cc1Cl | - | 362 µM
Cc1cncc2ccc(C(=O)NCc3ccccc3OC(C)C)nc12 | neutral red | 2.4 µg/mL
OC[C@@H]1C[C@H](n2c(Br)nc3cc(Cl)c(Cl)cc32)CO1 | - | 100 µM
Nc1nc2c(ncn2COC(CO)CO)c(=O)[nH]1 | MTT | >200 µg/mL
Cc1cn([C@H]2C[C@H](O)[C@@H](CO)O2)c(=S)[nH]c1=O | - | >302.6 µM

Repeating the final 9 entries:

Nc1nc2c(sc(=O)n2C/C=C\CO)c(=O)[nH]1 ; value: >300 µM
O=S1(=O)N=C(OCc2ccc(-c3ccccc3)cc2)c2ccccc2N1Cc1ccc(-c2ccccc2)cc1 ; value: >47 µM
C/C=C1\CNCCC1[C@@](C)(O)c1cc2ccccc2[nH]1 ; method: MTT ; value: 40.8 µg/mL
COc1ccc2c(c1)[C@@H]1C[C@]1(C(=O)N1[C@@H]3CC[C@H]1CN(C)C3)Cn1c-2c(C2CCCCC2)c2ccc(C(=O)NS(=O)(=O)N(C)C)cc21 ; method: resazurin ; value: 18 µM
Nc1nc(=S)n([C@H]2C[C@H](O)[C@@H](CO)O2)cc1Cl ; value: 362 µM
Cc1cncc2ccc(C(=O)NCc3ccccc3OC(C)C)nc12 ; method: neutral red ; value: 2.4 µg/mL
OC[C@@H]1C[C@H](n2c(Br)nc3cc(Cl)c(Cl)cc32)CO1 ; value: 100 µM
Nc1nc2c(ncn2COC(CO)CO)c(=O)[nH]1 ; method: MTT ; value: >200 µg/mL
Cc1cn([C@H]2C[C@H](O)[C@@H](CO)O2)c(=S)[nH]c1=O ; value: >302.6 µM

CCn is the concentration with n% toxicity to the cells. Blank or dashed fields: not listed here.